Results published in US5780433A (priority 1996, dated 1998).

System: nicotine-stimulated [3H]-dopamine release from rat striatal synaptosomes
Test: nicotine-stimulated [3H]-dopamine release, synaptosomal superfusion assay
Format: cell-based
Conditions: 3 μM nicotine, antagonist concentration not stated

For α-conotoxin MI, the “block of nicotine-stimulated dopamine release (words)” value was “do not block” and the “block of nicotine-stimulated dopamine release (words)” value (listed as α-Conotoxin MI) was “no effect”.
